One molecule from ChEMBL document CHEMBL6071156 (Eur J Med Chem, 2024) can be followed below.

The data set is described as follows: in vitro. As to conditions: human, liver microsomes. Background: Liver microsomes are a subcellular fraction often used to study metabolism.

`CC(C)NCC(O)COc1cccc2ccccc12` (stereo unspecified) [PROPRANOLOL]: the half-life (as a rule, how long it takes for the measured level to halve) is 2.32 h.
